# Source: patent publication US20190169602
# Where a protein sequence is shown, tags need not be part of it.
# Target: T1, Tn5 transposase (UniProt Q46731)
# T1 sequence (limits assumed): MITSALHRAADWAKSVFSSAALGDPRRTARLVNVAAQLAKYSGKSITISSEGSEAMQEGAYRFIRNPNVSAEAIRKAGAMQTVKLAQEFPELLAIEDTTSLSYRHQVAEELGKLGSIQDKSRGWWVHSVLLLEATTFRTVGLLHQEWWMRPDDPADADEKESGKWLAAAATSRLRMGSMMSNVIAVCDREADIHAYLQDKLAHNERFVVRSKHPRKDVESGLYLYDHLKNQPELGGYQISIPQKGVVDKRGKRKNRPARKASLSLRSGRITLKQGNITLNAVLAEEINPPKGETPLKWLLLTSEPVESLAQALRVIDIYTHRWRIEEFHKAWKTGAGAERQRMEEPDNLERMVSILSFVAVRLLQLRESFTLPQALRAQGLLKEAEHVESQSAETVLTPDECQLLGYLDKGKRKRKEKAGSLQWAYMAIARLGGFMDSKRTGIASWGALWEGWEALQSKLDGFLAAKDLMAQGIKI
# Experiment: activity assay
# Settings: Tn5 added to MuA transposomes 1 h room temp; transposition into pUC19 confirmed by sequencing with MuA-Tn5 TSC; 25 mM Tris pH 8.0, 10 mM MgCl2, 110 mM NaCl; purified recombinant protein
sequence,measurement,value
GATCTGAAGCGGCGCACGAAAAACGCGAAAGCGTTTCACGATAAATGCGAAAACAAAACCATCGCCGAGATTTGCCCGTAGATTTCAGTGCCGGTTAACTCCTCGAGCAATTCCGCGCGTTCTTTGGGTTTGGCATTCAGGAAGGCAGCAAATTAGATGTGTATAAGAGACAG (double strand),activity on this sequence,active
